A mixed list of measured activities; the numbers were collected in NIAID ChemDB.

Shared fields: tests in culture; agent: Candida lusitaniae

Two numbers with a dash give a range or band.

compound,method,strain,measure,value
CCCCCCCC/C=C\CCCCCCCC(=O)N[C@H](C(=O)N1C[C@H](C)C[C@H]1C(=O)N[C@H](C(=O)N[C@@H](CCO)C(=O)N[C@@H](C)CO)C(C)C)[C@@H](C)O,broth dilution / visual reading,ATCC34449,MIC,>32 µg/mL
Nc1ncccc1-c1cc(Cc2ccc(COc3ccccn3)cc2)no1,broth dilution,-,MIC,0.06 µg/mL
CCC(C)CC(C)CCCCCCCCC(=O)N[C@H]1C[C@@H](O)[C@H](NCCN)NC(=O)[C@@H]2[C@@H](O)CCN2C(=O)[C@H]([C@H](O)CCN)NC(=O)[C@H]([C@H](O)[C@@H](O)c2ccc(O)cc2)NC(=O)[C@@H]2C[C@@H](O)CN2C(=O)[C@H]([C@@H](C)O)NC1=O,broth dilution,UTHSC 11-537,MIC,0.5 µg/mL
CCC(C)n1ncn(-c2ccc(N3CCN(c4ccc(OC[C@H]5CO[C@](Cn6cncn6)(c6ccc(Cl)cc6Cl)O5)cc4)CC3)cc2)c1=O,broth dilution,-,MIC50,0.016 µg/mL
O=C(O)c1ccc(C[C@H](C(=O)O)[C@@H](O)C(=O)O)cc1,-,SC5314,MIC,2 µg/mL
Cc1ccccc1N1C(=O)CC(C)C1=O,broth dilution / turbidity,CCC 134-2000,MIC,125 µg/mL
C[C@H]1[C@H](O)[C@@H](C)/C=C/C=C/C=C/C=C/C=C/C=C/C=C/[C@H](O[C@@H]2O[C@H](C)[C@@H](O)[C@H](N)[C@@H]2O)C[C@@H]2O[C@](O)(C[C@@H](O)C[C@@H](O)CC[C@H](O)[C@@H](O)C[C@@H](O)CC(=O)O[C@H]1C)C[C@H](O)[C@H]2C(=O)O,broth dilution,66035,MIC,0.015 µg/mL
CC1CC(=O)N(CCCc2ccccc2)C1=O,broth dilution / turbidity,CCC 134-2000,MIC,125 µg/mL
CN[C@H]1CC[C@@H](c2ccc(Cl)c(Cl)c2)c2ccccc21,broth dilution,2-367,MFC,24 µg/mL
C[C@@H]1CC(=O)N(c2ccc([N+](=O)[O-])cc2)C1=O,broth dilution / turbidity,CCC 134-2000,MIC,125 µg/mL
Nc1scc2c1c(=O)oc1ccc3ccccc3c12,broth dilution,ATCC 200950,MIC,8 µg/mL
C[C@@H](n1ncc2ccccc21)[C@](O)(Cn1cncn1)c1ccc(F)cc1F,-,ATCC 42720,MIC80,0.063 µM
Cc1ccc(N2C(=O)CC(C)C2=O)cc1,broth dilution / turbidity,CCC 134-2000,MIC,250 µg/mL
CCCCCOc1ccc(-c2cc(-c3ccc(C(=O)N[C@H]4C[C@@H](O)[C@@H](O)NC(=O)[C@@H]5[C@@H](O)[C@@H](C)CN5C(=O)[C@H]([C@H](O)CC(N)=O)NC(=O)[C@H]([C@H](O)[C@@H](O)c5ccc(O)c(OS(=O)(=O)O)c5)NC(=O)[C@@H]5C[C@@H](O)CN5C(=O)[C@H]([C@@H](C)O)NC4=O)cc3)no2)cc1,broth dilution,RC-301,EC50,0.03 µg/mL
NN(Cc1ccccc1)CC(O)(Cn1cncn1)c1ccc(F)cc1F,-,ATCC 42720,MIC80,≥0.015 µg/mL
Cc1ccccc1N1C(=O)C[C@@H](C)C1=O,broth dilution / turbidity,CCC 134-2000,MIC,125 µg/mL
CCC(C)CC(C)CCCCCCCCC(=O)N[C@H]1C[C@@H](O)[C@H](NCCN)NC(=O)[C@@H]2[C@@H](O)CCN2C(=O)[C@H]([C@H](O)CCN)NC(=O)[C@H]([C@H](O)[C@@H](O)c2ccc(O)cc2)NC(=O)[C@@H]2C[C@@H](O)CN2C(=O)[C@H]([C@@H](C)O)NC1=O,-,-,MIC50,0.015–4 µg/mL
C[C@@H]1CC(=O)N(c2ccc(Cl)cc2)C1=O,broth dilution / turbidity,CCC 134-2000,MIC,62.5 µg/mL
OC(Cn1cncn1)(Cn1cncn1)c1ccc(F)cc1F,agar,-,MIC,12.5–25 µg/mL

2 of the rows above, restated:

compound	method	strain	measure	value
CCC(C)CC(C)CCCCCCCCC(=O)N[C@H]1C[C@@H](O)[C@H](NCCN)NC(=O)[C@@H]2[C@@H](O)CCN2C(=O)[C@H]([C@H](O)CCN)NC(=O)[C@H]([C@H](O)[C@@H](O)c2ccc(O)cc2)NC(=O)[C@@H]2C[C@@H](O)CN2C(=O)[C@H]([C@@H](C)O)NC1=O	broth dilution	UTHSC 11-537	MIC	0.5 µg/mL
C[C@@H]1CC(=O)N(c2ccc([N+](=O)[O-])cc2)C1=O	broth dilution / turbidity	CCC 134-2000	MIC	125 µg/mL

ECn: concentration that inhibits the pathogen or its effect by n%. An empty or dashed field is not shown. Neighbouring rows are from separate reports. A number after MIC or MFC names an inhibition level or a share of isolates.